PubChem BioAssay AID624483 (NMMLSC, 2012)
Only a part is listed here, and it is no random draw. The source made the active and inactive calls. Cut-off read from the data, not from the text of the source: active = fluorescence intensity above about 16000; inconclusive = no clear call, values can overlap the other calls; inactive = below that.

Assay: compound fluorescence in toxin protease inhibitor counterscreen, primary screen, artefact control for toxin protease inhibitor project, biochemical, multiplex microsphere, HTS (AID 624483); note: test concentration not given here
Conditions: compound autofluorescence counterscreen, microsphere flow cytometry; hits give high values

Structure (SMILES)	fluorescence intensity
CCCCOc1ccc(C(=O)NCC2(N3CCOCC3)CCCCC2)cc1	inactive: 4680
CCCCn1nnnc1C(c1cc2ccccc2o1)N1CCC(n2c(=O)[nH]c3ccccc32)CC1 (stereo unspecified)	inactive: 5810
O=P1(N(CCCl)CCCl)SCCCS1	inactive: 4320
O=C(NCC1(N2CCCCC2)CCCCC1)c1ccc(F)cc1	inactive: 5510
CCOC(=O)N1CCC(Nc2ccc(F)cc2)CC1	inactive: 4060
COc1ccc(NC2CCN(CCc3ccccc3)CC2)c(OC)c1	inactive: 8160
CCOc1ccc(C)cc1CN(CCCl)CCCl	inactive: 6490
CC(C)(C)n1nnnc1C(c1ccccc1)N1CCC(n2c(=O)[nH]c3ccccc32)CC1 (stereo unspecified)	inactive: 5520
O=C1CCN(Cc2ccccc2)CC1	inactive: 9600
O=c1[nH]c2ccccc2n1C1CCN(C(c2cccc3ccccc23)c2nnnn2C2CCCC2)CC1 (stereo unspecified)	inactive: 6120
CCOC(=O)N1CCC(Nc2cccc(C)c2)CC1	inactive: 3570
COc1cc(C(=O)NCC2(N(C)C)CCCCC2)ccc1OC(F)F	inactive: 3110
O=c1[nH]c2ccccc2n1C1CCN(C(c2ccccc2)c2nnnn2C2CCCCC2)CC1 (stereo unspecified)	inactive: 5250
CSc1ccccc1C(=O)NCC1(N2CCCCC2)CCCCC1	inactive: 7350
Cc1cccc(NC2(C#N)CCN(Cc3ccccc3)CC2)c1	inactive: 3610
O=C(NCC1(N2CCCCC2)CCCCC1)c1ccc(=O)[nH]c1	inactive: 6030
CCCCn1nnnc1C(CC)N1CCC(n2c(=O)[nH]c3ccccc32)CC1 (stereo unspecified)	inactive: 5790
CCCCn1nnnc1C(c1cccs1)N1CCC(n2c(=O)[nH]c3ccccc32)CC1 (stereo unspecified)	inactive: 4400
COc1ccc(C(=O)NCC2(N3CCCCC3)CCCCC2)cc1	inactive: 8680
CC(C)(C)OC(=O)N1CCC(N(C(=O)c2ccccc2)c2ccc(F)cc2)CC1	inactive: 3920
COc1ccc(C(=O)NCC2(N3CCCCC3)CCCCC2)c(OC)c1OC	inactive: 5370

Structure (SMILES)	fluorescence intensity
CCC(c1nnnn1C1CCCC1)N1CCC(n2c(=O)[nH]c3ccccc32)CC1 (stereo unspecified)	inactive: 5080
CCOC(=O)N1CCC(Nc2ccc(OC)cc2)CC1	inactive: 2550
CCCCn1nnnc1C(c1ccc(OC)cc1)N1CCC(n2c(=O)[nH]c3ccccc32)CC1 (stereo unspecified)	inactive: 4450
O=C(NCC1(N2CCCCC2)CCCCC1)c1ccc(Cl)s1	inactive: 5150
N#CC1(Nc2ccccc2)CCN(Cc2ccccc2)CC1	inactive: 3810
O=c1[nH]c2ccccc2n1C1CCN(C(c2cc3ccccc3o2)c2nnnn2C2CCCCC2)CC1 (stereo unspecified)	inactive: 5900
O=C(OC1CN2CCC1CC2)C1c2ccccc2Oc2ccccc21 (stereo unspecified)	inactive: 9610
COc1ccc(Cl)cc1C(=O)NCC1(N2CCOCC2)CCCCC1	inactive: 9000
O=C(NCC1(N2CCOCC2)CCCCC1)c1cc2ccccc2o1	inactive: 3930
O=C(NCC1(N2CCCCC2)CCCCC1)c1ccc(Cl)nc1	inactive: 7770
O=c1[nH]c2ccccc2n1C1CCN(C(c2ccccc2OC(F)(F)F)c2nnnn2C2CCCCC2)CC1 (stereo unspecified)	inactive: 5170
Cc1cc(C)cc(N(C(=O)c2ccccc2)C2CCN(C(=O)OC(C)(C)C)CC2)c1	inactive: 3730
CCCCn1nnnc1C(c1ccnc2ccccc12)N1CCC(n2c(=O)[nH]c3ccccc32)CC1 (stereo unspecified)	inactive: 5690
COc1cc(OC)c(C(=O)NCC2(N(C)C)CCCCC2)cc1OC	inactive: 3010
O=C(NCC1(N2CCOCC2)CCCCC1)c1cc(F)c(F)cc1Cl	inactive: 5480
CCC(c1nnnn1C(C)(C)C)N1CCC(n2c(=O)[nH]c3ccccc32)CC1 (stereo unspecified)	inactive: 5760
COc1ccc(CN(CCCl)CCCl)cc1Cl	inactive: 4140
CN(C)c1cccc(C(=O)NCC2(N3CCCCC3)CCCCC2)c1	inactive: 5460
CCCCn1nnnc1C(c1ccccc1OC(F)(F)F)N1CCC(n2c(=O)[nH]c3ccccc32)CC1 (stereo unspecified)	inactive: 6030
CC(C)c1ccc(NC2CCN(C(=O)OC(C)(C)C)CC2)cc1	inactive: 4420
Cc1ccc(C(=O)NCC2(N(C)C)CCCCC2)o1	inactive: 3670

Structure (SMILES)	fluorescence intensity
CCCOc1ccc(C(=O)NCC2(N(C)C)CCCCC2)cc1OC	inactive: 3370
COc1ccc(C(c2nnnn2C2CCCC2)N2CCC(n3c(=O)[nH]c4ccccc43)CC2)cc1 (stereo unspecified)	inactive: 5860
CN1CCC(Nc2cccc(F)c2)CC1	inactive: 11000
O=C(NCC1(N2CCCCC2)CCCCC1)c1cncc(Br)c1	inactive: 4620
O=C(NCC1(N2CCCCC2)CCCCC1)c1cccc([N+](=O)[O-])c1	inactive: 3420
CSc1ccc(C(=O)NCC2(N3CCOCC3)CCCCC2)cc1	inactive: 4480
CCN1CCC(Nc2ccc(Cl)cc2)CC1	inactive: 3890
O=c1[nH]c2ccccc2n1C1CCN(C(c2ccccc2OC(F)(F)F)c2nnnn2C2CCCC2)CC1 (stereo unspecified)	inactive: 5910
N#CC1(Nc2ccccc2)CCN(CCc2ccccc2)CC1	inactive: 3060
CC(C)(C)n1nnnc1C(c1ccccc1OC(F)(F)F)N1CCC(n2c(=O)[nH]c3ccccc32)CC1 (stereo unspecified)	inactive: 4410
O=C(NCC1(N2CCCCC2)CCCCC1)c1ccc(OC(F)F)cc1	inactive: 11200
COc1ccc(NC2CCN(C(=O)OC(C)(C)C)CC2)cc1	inactive: 4360
CN1CCN(CCOC(=O)C(O)(c2ccccc2)c2ccccc2)CC1	inactive: 8670
CCCCn1nnnc1C(c1cccc2ccccc12)N1CCC(n2c(=O)[nH]c3ccccc32)CC1 (stereo unspecified)	inactive: 5620
O=C(NCC1(N2CCOCC2)CCCCC1)c1cc(=O)[nH]c2ccccc12	inactive: 2400
COc1cc(C(=O)NCC2(N3CCCCC3)CCCCC2)ccc1OC(F)F	inactive: 13300
O=C(NCC1(N2CCCCC2)CCCCC1)c1cccc(C(F)(F)F)c1	inactive: 6010
CC(C)(C)OC(=O)N1CCC(N(C(=O)c2ccccc2)c2ccc(Cl)cc2)CC1	inactive: 3560
N#Cc1ccc(C(=O)NCC2(N3CCCCC3)CCCCC2)cc1	inactive: 4240
